## Primary screen of a compound library

The values are deposited in ChEMBL (CHEMBL3988442, “University of Dundee, Small-Polar-MMV Screening Library” (2021)).

Results are given as percent effect.
The record does not define 0% and 100%; most values in the screen are far below 50% and negative numbers occur (in some assays of this library far below -100).
This is part of a subset picked to be rich in strong results.
A dash means the value is not listed here; it may have been measured.

Mtb glucose medium: 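Whole-cell growth test on Mycobacterium tuberculosis, read after 3 days in glucose-containing 7H9 medium; the read-out is not stated. Compounds at 500 µM. The record gives no direction; compounds that gave an IC50 in retests scored well above the rest, so higher reads as more growth inhibition. Of about 18,000 compounds tested this way, about 1,400 (7.9%) reached 50% or more in at least one test.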
Mtb cholesterol medium: 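Phenotypic screen: M. tuberculosis growth, cholesterol and DPPC medium, 4 days; the read-out is not stated. Tested at 500 µM. Higher reads as more growth inhibition (inferred: compounds with an IC50 in retests scored well above the rest). Of about 18,000 compounds tested this way, about 900 (5%) reached 50% or more in at least one test.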

Compound,Mtb glucose medium,Mtb cholesterol medium
CNCC(=O)Nc1ccc(Br)cn1,-,-7.824
CC(=O)Nc1ccc(CCN)cc1,14.88,-
Cc1ccc(CNc2ccc(N(C)C)nc2)o1,-,-1112
COCCN1CCCN(C(=O)c2csc(Br)c2)CC1,26.01,-
COc1ccc(NC(=O)N2CCCC2)c(C)n1,-4.274,-
COc1cc(C#N)ccc1S(=O)(=O)N1CCCC1CN (stereo not given),29.07,-
OC(CN1CCn2ccnc2C1)c1cc(F)ccc1F (stereo not given),9.767,-0.4387
Cc1ccnc(NC(=O)C2CC(=O)N(C3CC3)C2)c1 (stereo not given),-7.597,-
CC(NCc1cccc2c1OCCO2)c1ccncc1 (stereo not given),56.23,-
O=C(CCn1cccn1)N1CCc2sccc2C1,59.18,48.09
CCCNC(=O)CN1CCC(c2nc(C)no2)CC1,7.015,-
CSc1ccc(Cl)c(C(=O)N2CCN(C)CC2)c1,30.84,-
NC(=O)c1cccnc1-c1ccc(O)cc1,19.15,-
COc1ccc2c(c1)OCC(CNC(=O)C(C)(C)N)C2 (stereo not given),35.5,22.59
Cc1ncc(S(C)(=O)=O)c(NC2(C(N)=O)CCCC2)n1,9.819,-
CCn1cc(C(=O)NCc2nnc(C(C)C)n2C)cn1,2.762,-
Cc1cc(NC(=O)CN2CCSCC2)n(C)n1,10.38,-
CC(C)=CCO[C@@H]1COCC[C@H]1NS(=O)(=O)C1CC1,18.02,-
COc1cccc(C(C)N2CCCN(C(N)=O)CC2)c1 (stereo not given),1.837,-
COc1ncc(C(=O)N[C@@H]2COCC[C@H]2O)nc1OC,-,-9.082
CC(=O)c1c[nH]c(C(=O)Nc2nnc(C)s2)c1,-10.14,-
Cc1ccsc1CN1CCc2n[nH]c(=O)n2CC1,-,14.41
CCC1CN(CC(=O)N(C)C2CC2)CCS1 (stereo not given),-,10.51
COCCN1CCNCC1=O,-,-10.96
CCC(C)(O)CNC(=O)CCOC(C)C (stereo not given),-,1.967
O=S(=O)(CC1CCOC1)N1CCN(CCO)CC1 (stereo not given),-,-13.33
c1ccc(CNc2cc(-n3cccn3)ncn2)cc1,53.49,3.327
CCOc1ccccc1OC1CCN(CC(N)=O)CC1,-,-22.37
O=C(CNc1ccccc1OC(F)F)N1CCNC1=O,40.07,-
Cn1ncc(CNC(=O)Nc2ccccn2)c1N,-,8.59
CO[C@@H](C(=O)NCCC1=CCOCC1)c1ccccc1,15.93,-
Cn1cc(CS(=O)(=O)c2ccccc2F)cn1,-,1.709
COc1ccc(OCCCC(=O)NCCN(C)C)cc1,9.933,21.97
CN(C)C(=O)Nc1cc(F)cc(F)c1,102.5,117.3
CSCCC(O)C(=O)NCCc1cnccn1 (stereo not given),4.262,-
Cc1nccn1CCCN1CCN(C2CCNC2)CC1 (stereo not given),-,-10.19
CCNC(=O)C1CCCN(c2ccncc2Cl)C1 (stereo not given),78.47,86.2
Cc1ccccc1CC(=O)NCC(F)(F)F,-5.038,-
COC(=O)CS(=O)(=O)Cc1ccc(CN)cc1,-11.04,-
Cc1cc(OC(F)F)c(C2NC(=O)CN2C)cc1C (stereo not given),62.92,-
CCN(CCO)c1ncnc2onc(C)c12,-,-3.497
O=C(NCC1(O)CCOCC1)Nc1cccc(F)c1,13.78,-
COCCNC(=O)Nc1ccc2c(c1)OC(C)(C)O2,55.92,61.95
CSCc1noc(CN2CCCC2c2nc(C)n[nH]2)n1 (stereo not given),-,15.6
C=C(C)CN1CCN(CC(=C)C)C(C(=O)N(C)C)C1 (stereo not given),-,0.6462
CN(C)CC(=O)NC(C)(C)C(=O)NCC1CCCC1,1.777,-
CCOC(=O)N1CCC(N)C1 (stereo not given),-1.818,-
NCc1coc(-c2cccs2)n1,80.76,71.56
CNC(=O)c1cccnc1N1CCSCC1,12.96,-
COC(=O)[C@@H]1C[C@@H](O)CN1C(C)Cc1ccsc1 (stereo not given in full),-,36.88
CCNC(=O)N1CCC(C(=O)c2ccc(O)cc2)CC1,40.28,-
O=C(NCC1CCS(=O)(=O)C1)N(CCO)C1CC1 (stereo not given),-,-2.283
N#Cc1ccc(NCc2ccccc2F)nc1,-,47.7
O=C(NCCCNCc1cccnc1)c1ccc(Cl)s1,-,20.63
CCCNC(=O)NC(=O)CNc1cc(F)ccc1F,13.16,-
CC(=O)N1CCN(CCC(=O)Nc2cc(C)on2)CC1,-9.151,-
CC(=O)Nc1cncc(Cl)n1,1.837,-
CC(=O)c1c[nH]c(C(=O)NCc2ccccc2O)c1,0.6163,-
O=C(NCC1CCN(C2CC2)C1)c1ccccc1F (stereo not given),64.71,-
Cc1cc(F)ccc1S(=O)(=O)N1C[C@H](C2CC2)[C@@H](N)C1,47.34,-
CN(CC(=O)N1CCCC1)S(=O)(=O)c1ccc(Cl)cc1,49.57,-
N#Cc1ccc(OCCCN2CCNC(=O)C2)cc1,57.36,58.22
Cc1ccnc(N2CCNCC2)c1,-,33.61
CNC(=O)CNc1ncc(C(F)(F)F)cc1Cl,-,8.343
CCC(C)(C)NC(=O)c1nnn(-c2ccccc2)c1C,70.17,66.15

Once more, the final 7:

Compound	Mtb glucose medium	Mtb cholesterol medium
O=C(NCC1CCN(C2CC2)C1)c1ccccc1F (stereo not given)	64.71	-
Cc1cc(F)ccc1S(=O)(=O)N1C[C@H](C2CC2)[C@@H](N)C1	47.34	-
CN(CC(=O)N1CCCC1)S(=O)(=O)c1ccc(Cl)cc1	49.57	-
N#Cc1ccc(OCCCN2CCNC(=O)C2)cc1	57.36	58.22
Cc1ccnc(N2CCNCC2)c1	-	33.61
CNC(=O)CNc1ncc(C(F)(F)F)cc1Cl	-	8.343
CCC(C)(C)NC(=O)c1nnn(-c2ccccc2)c1C	70.17	66.15